## Kdimer by position in the HIV-1 leader RNA

Sequence of the HIV-1 NL4-3 5' RNA, positions 1 to 437, as numbered in the source:
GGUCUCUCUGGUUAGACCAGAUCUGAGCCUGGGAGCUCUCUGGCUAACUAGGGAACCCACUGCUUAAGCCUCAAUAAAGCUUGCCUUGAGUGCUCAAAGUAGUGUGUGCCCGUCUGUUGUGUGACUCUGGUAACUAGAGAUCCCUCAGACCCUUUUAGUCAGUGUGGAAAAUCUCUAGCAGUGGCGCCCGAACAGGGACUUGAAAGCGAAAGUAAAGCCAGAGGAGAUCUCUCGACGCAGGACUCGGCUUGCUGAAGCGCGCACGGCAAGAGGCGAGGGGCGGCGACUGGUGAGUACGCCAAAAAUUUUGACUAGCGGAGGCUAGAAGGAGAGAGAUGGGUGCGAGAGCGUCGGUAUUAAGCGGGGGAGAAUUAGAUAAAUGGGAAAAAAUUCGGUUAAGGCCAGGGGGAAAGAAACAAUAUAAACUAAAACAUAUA

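Randomly mutated transcripts starting with one, two or three G (1G, 2G, 3G), capped or uncapped, were folded for 30 min at 37 °C. Monomer and dimer bands were cut from native gels after folding in high salt (300 mM KCl, 5 mM MgCl2) or low salt (40 mM KCl, 0.1 mM MgCl2). Kdimer compares mutation frequencies in monomer and dimer, corrected for sequencing errors.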

Values are log2 Kdimer, the median over the changes at each position: higher means that changes there hinder dimer formation, below 0 that they favour it.
One numbering serves 1G, 2G and 3G.
A position is written with its base.

position,domain,1G capped high-salt,1G capped low-salt,1G uncapped high-salt,1G uncapped low-salt
A326,none,0.08,-0.04,0.05,-0.09
A327,none,0.15,0.41,0.20,0.25
G328,none,-0.02,-0.07,0.00,-0.09
G329,none,0.02,0.03,0.07,-0.09
A330,none,0.11,0.37,0.21,0.22
G331,none,-0.05,-0.11,0.08,0.01
A332,none,-0.01,0.34,0.12,0.31
G333,AUG,0.03,-0.30,-0.04,-0.37
A334,AUG,0.11,0.23,0.14,0.35
G335,AUG,0.20,0.43,0.13,0.25
A336,AUG,0.05,0.53,0.08,0.49
U337,AUG,0.20,-0.15,0.12,-0.28
G338,AUG,0.05,0.03,0.16,0.30
G339,AUG,0.19,0.56,0.29,0.69
G340,AUG,-0.03,-0.24,0.05,0.06
U341,AUG,0.10,0.05,0.03,0.04
G342,AUG,0.21,-0.09,0.28,-0.12
C343,AUG,0.03,-0.11,0.10,-0.16
G344,AUG,-0.03,-0.61,0.07,-0.43
A345,none,0.24,0.34,0.26,0.36
G346,none,0.15,0.08,-0.05,0.10
A347,none,0.36,0.55,0.46,0.53
G348,none,-0.16,-0.46,-0.33,-0.43
C349,none,-0.21,-0.20,-0.20,-0.24
G350,none,-0.03,0.07,-0.01,0.01
U351,none,0.00,0.10,0.11,0.05
C352,none,0.02,-0.09,0.11,-0.10
G353,none,0.04,-0.12,0.00,-0.08
G354,none,-0.03,-0.76,-0.19,-0.59
U355,none,0.03,0.18,0.13,0.29
A356,none,0.10,-0.06,0.07,-0.06
U357,none,0.00,0.12,0.15,0.13
U358,none,0.01,-0.06,0.04,-0.07
A359,none,0.03,-0.16,0.16,0.02
A360,none,-0.05,-0.39,-0.09,-0.24
G361,none,0.10,-0.21,0.06,-0.22
C362,none,0.24,-0.08,0.26,-0.10
G363,none,0.21,0.07,0.30,0.16
G364,none,-0.07,-0.28,0.01,-0.30
G365,none,0.06,-0.09,0.07,0.01
G366,none,0.03,0.16,0.19,0.12
G367,none,0.19,0.19,0.26,0.09
A368,none,0.15,0.13,0.18,0.12
G369,none,0.12,0.12,0.12,0.06
A370,none,0.06,-0.01,0.07,-0.04
A371,none,-0.10,-0.19,-0.02,-0.01
U372,none,0.06,-0.14,-0.01,-0.05
U373,none,0.11,0.02,0.01,-0.12

Values reported by Ye et al. 2022 (doi:10.1038/s41594-022-00746-2).